Measurements from patent US20070049564A1 (Wyeth, priority 2005, published 2007).

Legend:
Assay in all cases: MIC, broth microdilution
[1] = test system: S. cholerasius GC 1355
[2] = test system: Salmonella spp. GC 566
[3] = test system: Salmonella spp. GC 235

| SMILES | MINIMAL INHIBITORY CONCENTRATION MIC ([1]; pre-incubated in Mouse Serum) [UG/ML] | MINIMAL INHIBITORY CONCENTRATION MIC ([1]; pre-incubated in Water) [UG/ML] | MINIMAL INHIBITORY CONCENTRATION MIC ([2]; pre-incubated in Mouse Serum) [UG/ML] | MINIMAL INHIBITORY CONCENTRATION MIC ([2]; pre-incubated in Water) [UG/ML] | MINIMAL INHIBITORY CONCENTRATION MIC ([3]; pre-incubated in Mouse Serum) [UG/ML] | MINIMAL INHIBITORY CONCENTRATION MIC ([3]; pre-incubated in Water) [UG/ML] | MINIMAL INHIBITORY CONCENTRATION MIC ([1]; Human Serum) [UG/ML] | MINIMAL INHIBITORY CONCENTRATION MIC ([1]; Mouse Serum) [UG/ML] | MINIMAL INHIBITORY CONCENTRATION MIC ([1]; Water) [UG/ML] | MINIMAL INHIBITORY CONCENTRATION MIC ([2]; Human Serum) [UG/ML] | MINIMAL INHIBITORY CONCENTRATION MIC ([2]; Mouse Serum) [UG/ML] | MINIMAL INHIBITORY CONCENTRATION MIC ([2]; Water) [UG/ML] | MINIMAL INHIBITORY CONCENTRATION MIC ([3]; Human Serum) [UG/ML] | MINIMAL INHIBITORY CONCENTRATION MIC ([3]; Mouse Serum) [UG/ML] | MINIMAL INHIBITORY CONCENTRATION MIC ([3]; Water) [UG/ML] | MINIMAL INHIBITORY CONCENTRATION MIC ([1]; pre-incubated in Human Serum) [UG/ML] | MINIMAL INHIBITORY CONCENTRATION MIC ([2]; pre-incubated in Human Serum) [UG/ML] | MINIMAL INHIBITORY CONCENTRATION MIC ([3]; pre-incubated in Human Serum) [UG/ML] |
| --- | --- | --- | --- | --- | --- | --- | --- | --- | --- | --- | --- | --- | --- | --- | --- | --- | --- | --- |
| CCCN(CC(=O)Nc1cc(N(C)C)c2c(c1O)C(=O)C1=C(O)[C@]3(O)C(=O)C(C(N)=O)=C(O)[C@@H](N(C)C)[C@@H]3C[C@@H]1C2)C(=O)OCOC(=O)c1ccsc1 [Example 27, ({[(2-{[(5aR,6aS,7S,10aS)-9-(aminocarbonyl)-4,7-bis(dimethylamino)-1,8,10a,11-tetrahydroxy-10,12-dioxo-5,5a,6,6a,7,10,10a,12-octahydrotetracen-2-yl]amino}-2-oxoethyl)(propyl)amino]carbonyl}oxy)methyl thiophene-3-carboxylate] | 16 | >64 | 1 | >64 | 1 | >64 |  |  |  |  |  |  |  |  |  |  |  |  |
| COC(=O)N(CC(=O)Nc1cc(N(C)C)c2c(c1O)C(=O)C1=C(O)[C@]3(O)C(=O)C(C(N)=O)=C(O)[C@@H](N(C)C)[C@@H]3C[C@@H]1C2)C(C)(C)C [Example 60, methyl 2-{[(5aR,6aS,7S,10aS)-9-(aminocarbonyl)-4,7-bis(dimethylamino)-1,8,10a,11-tetrahydroxy-10,12-dioxo-5,5a,6,6a,7,10,10a,12-octahydrotetracen-2-yl]amino}-2-oxoethyl(tert-butyl)carbamate] |  |  |  |  |  |  | >64 | >64 | >64 | >64 | >64 | >64 | >64 | >64 | >64 |  |  |  |
| CCCN(CC(=O)Nc1cc(N(C)C)c2c(c1O)C(=O)C1=C(O)[C@]3(O)C(=O)C(C(N)=O)=C(O)[C@@H](N(C)C)[C@@H]3C[C@@H]1C2)C(=O)OCOC(=O)c1ccc(C(C)(C)C)cc1 [Example 28, ({[(2-{[(5aR,6aS,7S,10aS)-9-(aminocarbonyl)-4,7-bis(dimethylamino)-1,8,10a,11-tetrahydroxy-10,12-dioxo-5,5a,6,6a,7,10,10a,12-octahydrotetracen-2-yl]amino}-2-oxoethyl)(propyl)amino]carbonyl}oxy)methyl 4-tert-butylbenzoate] | 16 | >64 | 2 | >64 | 0.50 | >64 |  |  |  |  |  |  |  |  |  |  |  |  |
| CCCCN(CC(=O)Nc1cc(N(C)C)c2c(c1O)C(=O)C1=C(O)[C@]3(O)C(=O)C(C(N)=O)=C(O)[C@@H](N(C)C)[C@@H]3C[C@@H]1C2)C(=O)OCOC(=O)c1ccc(-c2ccccc2)cc1 [Example 21, ({[(2-{[(5aR,6aS,7S,10aS)-9-(aminocarbonyl)-4,7-bis(dimethylamino)-1,8,10a,11-tetrahydroxy-10,12-dioxo-5,5a,6,6a,7,10,10a,12-octahydrotetracen-2-yl]amino}-2-oxoethyl)(butyl)amino]carbonyl}oxy)methyl 1,1′-biphenyl-4-carboxylate] | 16 | >64 | 4 | >64 | 2 | >64 |  |  |  |  |  |  |  |  |  |  |  |  |
| Cc1cc(C)cc(C(=O)OCOC(=O)N(CC(=O)Nc2cc(N(C)C)c3c(c2O)C(=O)C2=C(O)[C@]4(O)C(=O)C(C(N)=O)=C(O)[C@@H](N(C)C)[C@@H]4C[C@@H]2C3)C(C)(C)C)c1 [Example 51] |  |  |  |  |  |  | >64 | 8 | >64 | 64 | 4 | >64 | 64 | 2 | >64 |  |  |  |
| CC(C)C(=O)OCOC(=O)N(CC(=O)Nc1cc(N(C)C)c2c(c1O)C(=O)C1=C(O)[C@]3(O)C(=O)C(C(N)=O)=C(O)[C@@H](N(C)C)[C@@H]3C[C@@H]1C2)C(C)(C)C [Example 45, ({[(2-{[(5aR,6aS,7S,10aS)-9-(aminocarbonyl)-4,7-bis(dimethylamino)-1,8,10a,11-tetrahydroxy-10,12-dioxo-5,5a,6,6a,7,10,10a,12-octahydrotetracen-2-yl]amino}-2-oxoethyl)(tert-butyl)amino]carbonyl}oxy)methyl 2-methylpropanoate] | 4 | >64 | 2 | >64 | 1 | >64 |  |  |  |  |  |  |  |  |  | 32 | 32 | 8 |
| CCCCN(CC(=O)Nc1cc(N(C)C)c2c(c1O)C(=O)C1=C(O)[C@]3(O)C(=O)C(C(N)=O)=C(O)[C@@H](N(C)C)[C@@H]3C[C@@H]1C2)C(=O)OCOC(=O)c1cc(C)cc(C)c1 [Example 22, ({[(2-{[(5aR,6aS,7S,10aS)-9-(aminocarbonyl)-4,7-bis(dimethylamino)-1,8,10a,11-tetrahydroxy-10,12-dioxo-5,5a,6,6a,7,10,10a,12-octahydrotetracen-2-yl]amino}-2-oxoethyl)(butyl)amino]carbonyl}oxy)methyl 3,5-dimethylbenzoate] | 16 | >64 | 4 | >64 | 2 | >64 |  |  |  |  |  |  |  |  |  |  |  |  |
| CN(C)c1cc(NC(=O)CN(C(=O)OCOC(=O)C2CCCC2)C(C)(C)C)c(O)c2c1C[C@H]1C[C@H]3[C@H](N(C)C)C(O)=C(C(N)=O)C(=O)[C@@]3(O)C(O)=C1C2=O [Example 46, ({[(2-{[(5aR,6aS,7S,10aS)-9-(aminocarbonyl)-4,7-bis(dimethylamino)-1,8,10a,11-tetrahydroxy-10,12-dioxo-5,5a,6,6a,7,10,10a,12-octahydrotetracen-2-yl]amino}-2-oxoethyl)(tert-butyl)amino]carbonyl}oxy)methyl cyclopentanecarboxylate] | 2 | >64 | 2 | >64 | 1 | >64 |  |  |  |  |  |  |  |  |  | 32 | 16 | 16 |
| CN(C)c1cc(NC(=O)CN(C(=O)OCOC(=O)C2CCCCC2)C(C)(C)C)c(O)c2c1C[C@H]1C[C@H]3[C@H](N(C)C)C(O)=C(C(N)=O)C(=O)[C@@]3(O)C(O)=C1C2=O [Example 50, ({[(2-{[(5aR,6aS,7S,10aS)-9-(aminocarbonyl)-4,7-bis(dimethylamino)-1,8,10a,11-tetrahydroxy-10,12-dioxo-5,5a,6,6a,7,10,10a,12-octahydrotetracen-2-yl]amino}-2-oxoethyl)(tert-butyl)amino]carbonyl}oxy)methyl cyclohexanecarboxylate] |  |  |  |  |  |  | 64 | 4 | >64 | 32 | 4 | >64 | 32 | 2 | >64 |  |  |  |
| CN(C)c1cc(NC(=O)CN(C(=O)OCOC(=O)c2ccc(F)cc2)C(C)(C)C)c(O)c2c1C[C@H]1C[C@H]3[C@H](N(C)C)C(O)=C(C(N)=O)C(=O)[C@@]3(O)C(O)=C1C2=O [Example 52, ({[(2-{[(5aR,6aS,7S,10aS)-9-(aminocarbonyl)-4,7-bis(dimethylamino)-1,8,10a,11-tetrahydroxy-10,12-dioxo-5,5a,6,6a,7,10,10a,12-octahydrotetracen-2-yl]amino}-2-oxoethyl)(tert-butyl)amino]carbonyl}oxy)methyl 4-fluorobenzoate] |  |  |  |  |  |  | >64 | 4 | >64 | 32 | 2 | 64 | 16 | 1 | 16 |  |  |  |
| CCCN(CC(=O)Nc1cc(N(C)C)c2c(c1O)C(=O)C1=C(O)[C@]3(O)C(=O)C(C(N)=O)=C(O)[C@@H](N(C)C)[C@@H]3C[C@@H]1C2)C(=O)OCOC(=O)c1cccs1 [Example 25, ({[(2-{[(5aR,6aS,7S,10aS)-9-(aminocarbonyl)-4,7-bis(dimethylamino)-1,8,10a,11-tetrahydroxy-10,12-dioxo-5,5a,6,6a,7,10,10a,12-octahydrotetracen-2-yl]amino}-2-oxoethyl)(propyl)amino]carbonyl}oxy)methyl thiophene-2-carboxylate] | 32 | >64 | 4 | >64 | 2 | >64 |  |  |  |  |  |  |  |  |  |  |  |  |
